{
  "source": "paper PMC6669600",
  "about": "(Viruses, 2019)",
  "key": {"[1]": {"target": "T1, N36 (gp41 NHR-derived target mimic peptide) (Human immunodeficiency virus type 1 group M subtype B, UniProt P04578)", "assay": "Isothermal titration calorimetry with N36", "format": "binding, HIV-1", "conditions": "ITC, 1 mM N36 injected into 80 μM CHR peptide, 25 C"}, "[2]": {"system": "HIV-1HXB2 Env-mediated cell-cell fusion", "format": "cell-based", "conditions": "TZM-bl target, HL2/3 effector, 6 h coculture at 37 C, luciferase; triplicate, repeated three times, mean ± SD; SD; read-out: IC50, inhibition of HIV-1HXB2 Env-mediated cell-cell fusion"}, "HIV-1NL4-3 pseudovirus": {"system": "HIV-1NL4-3 pseudovirus", "format": "cell-based", "conditions": "TZM-bl cells, 100 TCID50, peptide-virus 1 h RT, 48 h at 37 C, luciferase, triplicate, repeated three times, mean ± SD, read-out: IC50, inhibition of HIV-1NL4-3 pseudovirus entry"}, "[3]": {"target": "T1, N36 (gp41 NHR-derived target mimic peptide)", "assay": "CD spectroscopy of inhibitor complexed with N36", "format": "binding, HIV-1", "conditions": "thermal denaturation of complex at 222 nm, 20-98 C, 2 C/min, each peptide 10 μM in PBS; repeated two times, representative data"}},
  "data": [
    {"smiles": "CC[C@H](C)[C@H](NC(=O)[C@H](CC(C)C)NC(=O)[C@H](CO)NC(=O)[C@H](Cc1c[nH]cn1)NC(=O)[C@@H](NC(=O)[C@H](CC(C)C)NC(=O)[C@H](CO)NC(=O)[C@@H](NC(=O)[C@H](Cc1ccc(O)cc1)NC(=O)[C@H](CC(N)=O)NC(=O)[C@H](CC(N)=O)NC(=O)[C@@H](NC(=O)[C@H](CCC(=O)O)NC(=O)[C@H](CCCNC(=N)N)NC(=O)[C@H](CC(=O)O)NC(=O)[C@H](Cc1c[nH]c2ccccc12)NC(=O)[C@H](CCC(=O)O)NC(=O)[C@H](CCSC)NC(=O)[C@H](Cc1c[nH]c2ccccc12)NC(C)=O)[C@@H](C)CC)[C@@H](C)O)[C@@H](C)CC)C(=O)N[C@@H](CCC(=O)O)C(=O)N[C@@H](CCC(=O)O)C(=O)N[C@@H](CO)C(=O)N[C@@H](CCC(N)=O)C(=O)N[C@@H](CC(N)=O)C(=O)N[C@@H](CCC(N)=O)C(=O)N[C@@H](CCC(N)=O)C(=O)N[C@@H](CCC(=O)O)C(=O)N[C@@H](CCCCN)C(=O)N[C@@H](C)C(=O)N[C@@H](CCC(=O)O)C(=O)N[C@@H](CCC(N)=O)C(=O)N[C@@H](CCC(=O)O)C(=O)N[C@@H](CC(C)C)C(=O)N[C@@H](CC(C)C)C(N)=O", "note": "[C34N145A]", "values": [
      {"measurement": "△H (enthalpy)", "setting": "[1]", "value": -13.1, "unit": "kcal/mol"},
      {"measurement": "△S (entropy)", "setting": "[1]", "value": "−14.8", "unit": "cal/mol/deg"},
      {"measurement": "N (reaction stoichiometric)", "setting": "[1]; repeated two times, representative data", "value": 1.1},
      {"measurement": "IC50", "setting": "[2]", "value": "2.2 ± 0.5", "unit": "nM"},
      {"measurement": "IC50", "setting": "HIV-1NL4-3 pseudovirus", "value": "4.8 ± 0.7", "unit": "nM"},
      {"measurement": "CD data (with N36) Tm (°C)", "setting": "[3]", "value": 51, "unit": "°C"}
    ]}
  ]
}
